The source of these data is patent US10647671B2, “Promysalin analogues and methods of use thereof” (Temple University—Of The Commonwealth System of Higher …, priority 2016, dated 2020).

The test system of this data set is succinate dehydrogenase C-subunit (SdhC). The experiment in a line: Affinity/activity-based protein profiling (ABPP). The conditions noted are these: probe 3 μM.

As for `CCCCCC[C@H](CCCCC[C@@H](O)C(N)=O)OC(=O)[C@@H]1CC=CN1C(=O)c1ccccc1O` [1 (2R,8R), promysalin], the “competition of probe enrichment of SdhC” value (promysalin 30 μM pre-incubation) was “outcompeted”. Take `C#CCCC1(CCNC(=O)[C@H](O)CCCCC[C@@H](CCCCCC)OC(=O)[C@@H]2CC=CN2C(=O)c2ccccc2O)N=N1` [(−)-2, (7R,13R)-14-((2-(3-(but-3-yn-1-yl)-3H-diazirin-3-yl)ethyl)amino)-13-hydroxy-14-oxotetradecan-7-yl (S)-1-(2-hydroxybenzoyl)-2,3-dihydro-1H-pyrrole-2-carboxylate]: the “most prominent enriched protein (ABPP)” value (PAO1 and PA14, versus inactive probe) was “succinate dehydrogenase C-subunit (SdhC)”.
